According to doi:10.1101/2024.06.18.599654v1:

Tests used:
[1] = system: CCCC(=O)Oc1ccc([N+](=O)[O-])cc1; test: purified protein; conditions: pH 8.0; 30.0 °C
[2] = system: CC(=O)Oc1ccc([N+](=O)[O-])cc1; test: purified protein; conditions: pH 8.0; 30.0 °C

PE11 (LipX; Rv1169c) (Mycobacterium tuberculosis H37Rv)
Km [1]: 6.929 ± 0.3193 µM
Km [2]: 20.362 ± 5.372 µM
